The source of these data is patent publication US8642317B2 (priority 2007, dated 2014).

In the test the test system is bacterial isolate 180507-1 (IDAC). Kind of test: Degradation of trichothecenes other than DON by the selected isolate.

T2 toxin: the “degradation by the selected isolate (deepoxidation and/or deacylation)” value is “degraded”. For `CC1=C[C@H]2O[C@@H]3C[C@@H](O)[C@](C)([C@@]2(CO)CC1)[C@]31CO1` the value was “degraded”.
